A mixed list of measured activities; the numbers were collected in NIAID ChemDB.

All rows: tests in culture; species: Aspergillus niger

Lines come from different laboratories, so protocols vary. Blank or dashed fields: not listed here. MIC50, MIC90 and the like: level of inhibition, or share of isolates inhibited.

structure,strain,method,measure,setting,result
C=C(C(=O)O[C@H]1C[C@]2(C)[C@H]([C@@H](CO)CC[C@H]2O)[C@@H](O)[C@@H]1C(=C)C(=O)OC)C(O)COC(C)=O,ATCC 6275,-,MIC,-,1 µg/mL
CCCCCCCCCCCCCC(=O)NC(CCCN)C(=O)NC(CCCN)C(=O)NC(CCCN)C(N)=O,ATCC 64028,broth dilution,MIC,-,6.25 µg/mL
CC(=O)Nc1ccc(OCC(=O)N2N=C(c3nc4ccccc4[nH]3)CC2c2ccc(O)cc2)cc1,MTCC 282,-,MIC100,-,500 µg/mL
C=C1C(=O)O[C@@H]2/C=C(\CO)CCC=C(C)C[C@H](OC(=O)/C(=C/COC(C)=O)CO)[C@@H]12,ATCC 6275,-,MIC,-,0.03 µg/mL
CCCCCCCCCC(=O)NC(CCCN)C(N)=O,ATCC 64028,broth dilution,MIC,-,>100 µg/mL
Fc1cccc(CO/N=C2/c3ccccc3OCC2n2cncn2)c1,ATCC 16401,-,MIC,-,16 µg/mL
Cc1ccc(-c2n[nH]c(COc3nc(C)nc4ccccc34)n2)cc1,MTCC 282,-,MIC100,-,25 µg/mL
COc1c(CN(C)C)cccc1C1OC(c2ccncc2)=NN1C(C)=Nc1ccccc1F,MTCC 8189,-,MIC,-,12.5 µg/mL
Cc1ccc2sn(N(S(=O)(=O)c3ccc(N)cc3)S(=O)(=O)c3ccc(N)cc3)c(=O)c2c1,ATCC 6275,-,MIC100,-,>100 µg/mL
Cc1ccc2nc(Cl)c(C3SC(=Cc4cccc(Cl)c4)C(=O)N3n3c(-c4ccc(Cl)cc4)nc4ccccc4c3=O)cc2c1,-,broth dilution / visual reading,MIC99,-,1000 µg/mL
OC(Cn1cncn1)(Cn1cncn1)c1ccc(F)cc1F,NCIM 1196,agar,MIC,-,10 µg/mL
CC(=O)Nc1ccc(OCC(=O)N2N=C(c3nc4ccccc4[nH]3)CC2c2ccc(C)cc2)cc1,MTCC 282,-,MIC100,-,500 µg/mL
CCCCCCCCCCCC(=O)NC(CCCN)C(=O)NC(CCCN)C(N)=O,ATCC 64028,broth dilution,MIC,-,100 µg/mL
Cc1ccc2nc(Cl)c(C3SC(=Cc4ccc([N+](=O)[O-])cc4)C(=O)N3n3c(-c4ccc(Cl)cc4)nc4ccccc4c3=O)cc2c1,-,broth dilution / visual reading,MIC99,-,1000 µg/mL
Cc1ccc(/C=C2/SC(=O)N(CC(=O)Nc3nc4ccc(SC#N)cc4s3)C2=O)cc1,MTCC 282,broth dilution / visual reading,MIC,-,500 µg/mL
Cc1nc(OCc2nc(-c3cccs3)n[nH]2)c2ccccc2n1,MTCC 282,-,MIC100,-,12.5 µg/mL
Cc1ccc2nc(Cl)c(C3SC(=Cc4ccccc4[N+](=O)[O-])C(=O)N3n3c(-c4ccc(Cl)cc4)nc4ccccc4c3=O)cc2c1,-,broth dilution / visual reading,MIC99,-,500 µg/mL
Fc1ccc(CO/N=C2/c3ccccc3OCC2n2cncn2)cc1,ATCC 16401,-,MIC,-,32 µg/mL
Cc1onc(-c2ccccc2Cl)c1C(=O)N[C@@H]1C(=O)N2[C@@H]1SC(C)(C)[C@@H]2C(=O)O,ATCC 16404,broth dilution,MIC,24 h,>512 µg/mL
CCCCCCCC(=O)NC(CCCN)C(=O)NC(CCCN)C(=O)NC(CCCN)C(=O)NC(CCCN)C(=O)NC(CCCN)C(N)=O,ATCC 64028,broth dilution,MIC,-,>100 µg/mL
CC(=O)Nc1ccc(OCC(=O)N2N=C(c3nc4ccccc4[nH]3)CC2c2ccccc2O)cc1,MTCC 282,-,MIC100,-,500 µg/mL
Cc1ccc(-c2n[nH]c(COc3ncnc4ccccc34)n2)cc1,MTCC 282,-,MIC100,-,12.5 µg/mL
Nc1ccc(S(=O)(=O)Nn2sc3ccccc3c2=O)cc1,ATCC 6275,-,MIC100,-,>100 µg/mL
Cn1ccnc1C(=O)c1nccn1C,ATCC 16404,broth dilution,MIC,24 h,>512 µg/mL
CN1CCN(c2nc3ccc4c(ccc(=O)n4C)c3s2)CC1,MTCC 282,-,MIC100,-,250 µg/mL
c1ccc(-c2n[nH]c(CN3CCc4sccc4C3)n2)cc1,NCIM 1196,agar,MIC,-,>200 µg/mL
Cc1ccc(C=C2SC(c3cc4cc(C)ccc4nc3Cl)N(n3c(-c4ccc(Cl)cc4)nc4ccccc4c3=O)C2=O)cc1,-,broth dilution / visual reading,MIC99,-,1000 µg/mL
CC(=O)Nc1ccc(S(=O)(=O)Nn2sc3ccc(C)cc3c2=O)cc1,ATCC 6275,-,MIC100,-,>100 µg/mL
CCCCCCCCCC(=O)NC(CCCN)C(=O)NC(CCCN)C(N)=O,ATCC 64028,broth dilution,MIC,-,>100 µg/mL
Clc1ccc2c(c1)OCC(n1cnnc1)/C2=N\OCc1ccccc1,ATCC 16401,-,MIC,-,64 µg/mL
N#CSc1ccc2nc(NC(=O)CN3C(=O)S/C(=C/c4ccc(F)cc4)C3=O)sc2c1,MTCC 282,broth dilution / visual reading,MIC,-,1000 µg/mL
Cn1c(=O)ccc2c3sc(N4CCN(C(c5ccccc5)c5ccccc5)CC4)nc3ccc21,MTCC 282,-,MIC100,-,200 µg/mL
COc1c(CN(C)C)cccc1C1OC(c2ccncc2)=NN1C(C)=Nc1ccccc1Cl,MTCC 8189,-,MIC,-,12.5 µg/mL
CCCCCCCCCCCCCCCCCC(=O)NC(CCCN)C(N)=O,ATCC 64028,broth dilution,MIC,-,>100 µg/mL
COc1ccc(-c2n[nH]c(COc3nc(C)nc4ccccc34)n2)cc1,MTCC 282,-,MIC100,-,12.5 µg/mL
C[C@@H](c1ncncc1F)[C@](O)(Cn1cncn1)c1ccc(F)cc1F,21,broth dilution,MIC,-,1 µg/mL
CCC(C)n1ncn(-c2ccc(N3CCN(c4ccc(OC[C@H]5CO[C@](Cn6cncn6)(c6ccc(Cl)cc6Cl)O5)cc4)CC3)cc2)c1=O,-,broth dilution,MIC50,-,2 µg/mL
Clc1ccc(CO/N=C2/c3ccc(Cl)cc3OCC2n2cncn2)c(Cl)c1,ATCC 16401,-,MIC,-,64 µg/mL
COc1cc(-c2n[nH]c(COc3nc(C(F)(F)F)nc4ccccc34)n2)cc(OC)c1OC,MTCC 282,-,MIC100,-,12.5 µg/mL
COc1ccc(/C=C2/SC(=O)N(CC(=O)Nc3nc4ccc(SC#N)cc4s3)C2=O)cc1,MTCC 282,broth dilution / visual reading,MIC,-,1000 µg/mL
Clc1ccc(-c2n[nH]c(CN3CCc4sccc4C3)n2)cc1,NCIM 1196,agar,MIC,-,100 µg/mL
Fc1ccc(-c2n[nH]c(COc3nc(C(F)(F)F)nc4ccccc34)n2)cc1,MTCC 282,-,MIC100,-,25 µg/mL
Clc1ccc(CO/N=C2/c3ccccc3OCC2n2cnnc2)c(Cl)c1,ATCC 16401,-,MIC,-,64 µg/mL
C[C@@H](c1ncncc1F)[C@](O)(Cn1cncn1)c1ccc(F)cc1F,-,broth dilution,MIC50,-,1 µg/mL
C[C@H]1N(C(=O)c2ccc(C(F)(F)F)cc2)CCO[C@@]1(Cn1cncn1)c1ccc(F)cc1F,Isolate 1,-,MIC,-,50 µg/mL
C=C[C@]1(C)C[C@H](OC(=O)C(=C)C(O)CO)[C@H]2C(=C)C(=O)O[C@@H]2[C@H]1C(=C)CO,ATCC 6275,-,MIC,-,0.25 µg/mL
CCCCCCN(CCCCCC)c1ccc(/C=C2/SC(=O)N(CC(=O)Nc3nc4ccc(SC#N)cc4s3)C2=O)cc1,MTCC 282,broth dilution / visual reading,MIC,-,500 µg/mL
C[n+]1c[nH]cc1-c1ccccc1,ATCC 16404,broth dilution,MIC,48 h,500 µg/mL
CC(=O)Nc1ccc(OCC(=O)N2N=C(c3nc4ccccc4[nH]3)CC2c2ccc(Br)cc2)cc1,MTCC 282,-,MIC100,-,25 µg/mL
CC(=O)Nc1ccc(S(=O)(=O)N(n2sc3ccc(C)cc3c2=O)S(=O)(=O)c2ccc(NC(C)=O)cc2)cc1,ATCC 6275,-,MIC100,-,>100 µg/mL
Fc1ccccc1CO/N=C1/c2ccccc2OCC1n1cncn1,ATCC 16401,-,MFC,-,64 µg/mL
CC(=O)N1CCN(c2nc3ccc4c(ccc(=O)n4C)c3s2)CC1,MTCC 282,-,MIC100,-,250 µg/mL
c1ccc(CO/N=C2/c3ccccc3OCC2n2cncn2)cc1,ATCC 16401,-,MIC,-,32 µg/mL
Cn1ccnc1C(CC(=O)O)c1nccn1C,ATCC 16404,broth dilution,MIC,48 h,>512 µg/mL
COC(=O)/C=C/c1ccccc1,-,broth dilution / resazurin,MIC,-,500 µg/mL
O=c1ccc2c(ccc3nc(N4CCN(c5ccc(F)cc5)CC4)sc32)o1,MTCC 282,-,MIC100,-,62.5 µg/mL
CCCCCCCCCCCCCCCCCC(=O)NC(CCCN)C(=O)NC(CCCN)C(N)=O,ATCC 64028,broth dilution,MIC,-,12.5 µg/mL
O=c1ccc2c(ccc3nc(N4CCN(Cc5ccccc5)CC4)sc32)o1,MTCC 282,-,MIC100,-,500 µg/mL
c1csc(-c2n[nH]c(COc3ncnc4ccccc34)n2)c1,MTCC 282,-,MIC100,-,6.25 µg/mL
CCN1CCN(c2nc3ccc4oc(=O)ccc4c3s2)CC1,MTCC 282,-,MIC100,-,250 µg/mL
Clc1cccc(-c2n[nH]c(CN3CCc4sccc4C3)n2)c1,NCIM 1196,agar,MIC,-,150 µg/mL
O=c1ccc2c(ccc3nc(N4CCN(C(c5ccccc5)c5ccccc5)CC4)sc32)o1,MTCC 282,-,MIC100,-,500 µg/mL
CCCCCCCCCCCCCCCC(=O)NC(CCCN)C(=O)NC(CCCN)C(=O)NC(CCCN)C(=O)NC(CCCN)C(=O)NC(CCCN)C(N)=O,ATCC 64028,broth dilution,MIC,-,1.5 µg/mL
Cn1c(=O)ccc2c3sc(N4CCN(c5ccccc5)CC4)nc3ccc21,MTCC 282,-,MIC100,-,250 µg/mL
COc1cccc(C2CC(c3nc4ccccc4[nH]3)=NN2C(=O)COc2ccc(NC(C)=O)cc2)c1,MTCC 282,-,MIC100,-,500 µg/mL

A second listing of 7 rows from above:

structure	strain	method	measure	setting	result
CC(=O)Nc1ccc(OCC(=O)N2N=C(c3nc4ccccc4[nH]3)CC2c2ccc(C)cc2)cc1	MTCC 282	-	MIC100	-	500 µg/mL
CC(=O)Nc1ccc(OCC(=O)N2N=C(c3nc4ccccc4[nH]3)CC2c2ccc(O)cc2)cc1	MTCC 282	-	MIC100	-	500 µg/mL
COc1c(CN(C)C)cccc1C1OC(c2ccncc2)=NN1C(C)=Nc1ccccc1Cl	MTCC 8189	-	MIC	-	12.5 µg/mL
CC(=O)Nc1ccc(OCC(=O)N2N=C(c3nc4ccccc4[nH]3)CC2c2ccccc2O)cc1	MTCC 282	-	MIC100	-	500 µg/mL
Cc1ccc(/C=C2/SC(=O)N(CC(=O)Nc3nc4ccc(SC#N)cc4s3)C2=O)cc1	MTCC 282	broth dilution / visual reading	MIC	-	500 µg/mL
Cc1ccc2nc(Cl)c(C3SC(=Cc4ccc([N+](=O)[O-])cc4)C(=O)N3n3c(-c4ccc(Cl)cc4)nc4ccccc4c3=O)cc2c1	-	broth dilution / visual reading	MIC99	-	1000 µg/mL
Clc1ccc2c(c1)OCC(n1cnnc1)/C2=N\OCc1ccccc1	ATCC 16401	-	MIC	-	64 µg/mL